Molecular target: the molecule itself

Protein | binding result
HeV PNT3 wt (domain or fragment) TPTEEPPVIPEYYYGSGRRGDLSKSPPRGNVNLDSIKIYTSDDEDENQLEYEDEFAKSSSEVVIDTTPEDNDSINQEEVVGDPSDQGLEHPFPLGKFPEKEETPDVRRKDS | binds
NiV PNT3 (domain or fragment) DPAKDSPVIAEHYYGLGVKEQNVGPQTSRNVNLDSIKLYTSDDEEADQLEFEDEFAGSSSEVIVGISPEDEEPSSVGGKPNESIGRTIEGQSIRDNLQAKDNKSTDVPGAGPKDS | binds
